Measured values from the supplement of paper PMC9931576.
Human monoclonal antibodies against the spike receptor-binding domain (heavy:light variable regions). IC50 against pseudoviruses bearing the spike of naturally observed variants; lower = stronger; >10 µg/ml means not reached at the top dose. No active / inactive call. The stated detection limit is 0.0005 µg/ml; values near or below 0.001 µg/ml lie at the floor of the assay.

B1: XGv-293 (protein)
chain 1: QVQLVQSGAEVKKPGASVKVSCKASGYTFTSYFLHWVRQAPGQGLEWLGIIDPSGGASYAQKFQGRVTMTSDTSTSTVYMDLGSLRSEDTAVYYCARAEGTSWLGWFDPWGQGSLVTVSS
chain 2: QSVLTQPPSASGTPGQRVTISCSGSSSNIGTNYVYWYQQLPGTAPKLLIYRNYQRPSGVPDRFSGSKSGTSASLAISGLRSEDEAEYYCAAWDNGLSGSGWVFGGGTKLTVL
B2: XGv-294 (protein)
chain 1: QVQLVQSGAEVKKPGASVKVSCKASGYTFTRHYIHWVRQAPGQGLEWMGIINPSGGGASYAQKFQGRVTMTRDTSTSTVYMEVSSLRYEDTAVYYCARAEGGSWLGWFDPWGQGTLVTVSS
chain 2: QSVLTQPPSASGTPGQRVTISCSGGSSNIGNNYVYWYQQLPGTAPKLLIYGNNQRPSGVPDRFSGSKSGTSASLAISGLRSEDEADYHCAAWDDGLSGSGWVFGGGTKLT
B3: XGv-295 (protein)
chain 1: QVQLVQSGAEVKKPGASVKVSCKASGYIFTNYYIHWVRQAPGQGLEWMAIFNPSAATASYAQKFQGRVTMTRDTSTTTVYMELRSLRFDDTAVYYCARAEGTSWLGWFDPWGQGTLVTVSS
chain 2: QSVLTQPPSASGTPGQRVTVSCSGSSSNIGSHDVYWYQQLPGTAPKLLIYKNDQRPSGVPDRFSGSTSGTSASLAISGLRSEDEADYYCAAWDDGLSGSGWVFGGGTKLTVL
B4: XGv-298 (protein)
chain 1: EVQLVESGGGLMQPGGSLRLSCAASGFIVSRNYMNWVRQAPGKGLEWVSVIYSGGTTDYADSVKGRFTVSRDNSMNTLYLQMNSLRAEDTAVYYCARDLVVFGMDVWGQGTTVTVSS
chain 2: DIQLTQSPSSLSASVGDRVTITCRASQGISSYLAWYQQKPGKAPKLLIYAASTLQSGVPSRFSGSGSETDFTLTISSLQPEDFATYYCQHLNGYPLTFGGGTKVEIK
B5: XGv-324 (protein)
chain 1: QVQLVQSGAEVKKPGSSVKVSCKTSGGTFNTYAINWVRQAPGQGLEWMGRIIPVLGVATSAQKFQGRVTITADKSTITAFMELSSLRSEDTAVYYCARGIVGPTPGWFDFWGQGTLVTVSS
chain 2: EIVMTQSPATLSVSPGERATLSCRASQSVSSDLAWYQQKPGQAPRLLIYGASTRATGVPARFSGSGSGTEFTLSISSLQSEDFAVYYCQQYNNGQTFGQGTTVDIK
B6: XGv-337 (protein)
chain 1: EVQLVESGGGLVQPGGSLRLSCAASGFPFITYWMSWVRQTPGKGLEWVANIKEDGSEKNYVDSVKGRFTISRDNAENSLYLRMNSLRTEDTAVYYCAREIRRTIPTSGMDVWGQGTTVIVSS
chain 2: SYELTQPPSVSVSPGQTARITCTGDALPKQYAYWYQQKPGQAPVLIISKDNERASGIPERISGSRSGTTVTLTISGVQAEDEAEYYCQSADSSGSYSYVFGTGTK
B7: XGv-347 (protein)
chain 1: QMQLVQSGPEVKKPGTSVKVSCKASGFTFTDVSSLQWVRQARGQRLEWIGWTVVGTGNTNYAPRFQERVTITTDKSTSTAYMELSSLRSEDTAVYYCAAPFCSETSCSDGFDLWGQGTKVTVSS
chain 2: EIVLTQSPGTLSLSPGDRATLSCRASQSVRISYLAWYQQKPGQAPRLLISGSSSRATGIPDRFSASGSGTDFALTISRLEPEDFAVYYCQQYDNSPWTFGQGTKVEVK

Biological target: SARS-CoV-2 Omicron BA.1 spike pseudovirus
Experiment: pseudovirus neutralization IC50; higher = weaker neutralization
Protocol: (§1)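 Single-round VSV luciferase pseudovirus mixed with antibody dilutions for 1 h and put on Huh-7 cells for about a day; IC50 from the dose curve.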

Binder | pseudovirus neutralization IC50 [µg/mL]
B1 | 0.00366
B2 | > 10
B3 | 0.16
B4 | > 10
B5 | > 10
B6 | 0.0208
B7 | 0.00489

Biological target: SARS-CoV-2 Omicron BA.2 spike pseudovirus
Experiment: as above
Protocol: as §1

Binder | pseudovirus neutralization IC50 [µg/mL]
B1 | 0.00201
B2 | > 10
B3 | 0.00831
B4 | > 10
B5 | > 10
B6 | 0.0123
B7 | 0.00769

Biological target: SARS-CoV-2 Omicron BA.2.75 spike pseudovirus
Experiment: as above
Protocol: as §1

Binder | pseudovirus neutralization IC50 [µg/mL]
B1 | 0.00307
B2 | > 10
B3 | 0.122
B4 | > 10
B5 | > 10
B6 | 0.0141
B7 | 0.00643

Biological target: SARS-CoV-2 Omicron BA.5 spike pseudovirus
Experiment: as above
Protocol: as §1

Binder | pseudovirus neutralization IC50 [µg/mL]
B1 | 0.00193
B2 | > 10
B3 | 0.00839
B4 | > 10
B5 | > 10
B6 | 3.63
B7 | > 10

Biological target: SARS-CoV-2 Omicron BQ.1.1 spike pseudovirus
Experiment: as above
Protocol: as §1

Binder | pseudovirus neutralization IC50 [µg/mL]
B1 | 0.0158
B2 | > 10
B3 | 0.049
B4 | > 10
B5 | > 10
B6 | 1.5
B7 | > 10

Biological target: SARS-CoV-2 Omicron XBB spike pseudovirus
Experiment: as above
Protocol: as §1

Binder | pseudovirus neutralization IC50 [µg/mL]
B1 | > 10
B2 | > 10
B3 | > 10
B4 | > 10
B5 | > 10
B6 | 3.72
B7 | > 10

Biological target: SARS-CoV-2 early D614G spike pseudovirus
Experiment: as above
Protocol: as §1

Binder | pseudovirus neutralization IC50 [µg/mL]
B1 | 0.00112
B2 | 0.0185
B3 | 0.0019
B4 | 0.0062
B5 | 0.00272
B6 | 0.00803
B7 | 0.00457
